Assay results from patent US5441983A, “Treatment of infection by enveloped virus with calix(N)arene compounds” (Genelabs Incorporated, priority 1992, dated 1995).

System: drug-resistant strains of HSV-1 and HSV-2
Assay: Inhibition of viral yield, drug-resistant versus wildtype strains (summary)
Details: ID90 comparison, in words

SMILES	activity against drug-resistant strains compared with wildtype
Nc1nc2c(ncn2COCCO)c(=O)[nH]1 [ACV, acyclovir, reference compound]	significant resistance
Nc1nc(O)c2ncn(COC(CO)CO)c2n1 [DHPG, ganciclovir]	significant resistance
